According to patent publication US20220401514A1, “ANTIMICROBIAL, BACTERIOPHAGE-DERIVED POLYPEPTIDES AND THEIR USE AGAINST GRAM-NEGATIVE AND ACID-FAST BACTERIA” (CONTRAFECT CORPORATION, priority 2019, published 2022):

Key:
[1] = system: P. aeruginosa strain CFS-1292; assay type: cell-based, Pseudomonas aeruginosa; settings: CAA media with agent at 4×MIC; resistant colonies after 48 hours / total CFUs
[2] = system: P. aeruginosa strain CFS 1292; assay type: cell-based, Pseudomonas aeruginosa; settings: serial passage

NC[C@H]1O[C@H](O[C@H]2[C@H](O)[C@@H](O[C@H]3O[C@H](CO)[C@@H](O)[C@H](N)[C@H]3O)[C@H](N)C[C@@H]2N)[C@H](N)C[C@@H]1O [tobramycin, reference compound]
frequency (spontaneous resistance) [1]: 3.85E−09

O=C(O)c1cn(C2CC2)c2cc(N3CCNCC3)c(F)cc2c1=O [ciprofloxacin, reference compound]
change in MIC after 21 days [2]: significant increases
